Reference: the supplement of paper PMC3578754
Fold change is the IC50 on the isolate divided by the IC50 on a reference virus; 1 = unchanged, higher = more resistant. Changes are given against the subtype B consensus. No active / inactive call. The values were gathered from many studies (numbered anew) with different assays, which the source does not name. Most viruses are clinical isolates; some are laboratory strains or clones with known resistance changes. Isolates with mixed residues are left out; stretches that were not sequenced show no change. Round top values that many isolates share are read here as limits; other very high values and 0.1 may be limits too. For some assays here: The protease changes I3V and N37S, insertions and deletions cannot be read from the source.

Legend:
tenofovir = compound: C[C@H](Cn1cnc2c(N)ncnc21)OCP(=O)(O)O [tenofovir]; experiment: fold change of IC50 against reference virus; higher = more resistant
Description: (§1)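 Cell-culture drug susceptibility tests of virus bearing the reverse transcriptase of each isolate, gathered from many studies.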

delavirdine = compound: CC(C)Nc1cccnc1N1CCN(C(=O)c2cc3cc(NS(C)(=O)=O)ccc3[nH]2)CC1 [delavirdine]; experiment: as above
Description: as §1

didanosine = compound: O=c1[nH]cnc2c1ncn2[C@H]1CC[C@@H](CO)O1 [didanosine]; experiment: as above
Description: as §1

nevirapine = compound: Cc1ccnc2c1NC(=O)c1cccnc1N2C1CC1 [nevirapine]; experiment: as above
Description: as §1

efavirenz = compound: O=C1Nc2ccc(Cl)cc2[C@@](C#CC2CC2)(C(F)(F)F)O1 [efavirenz]; experiment: as above
Description: as §1

stavudine = compound: Cc1cn([C@H]2C=C[C@@H](CO)O2)c(=O)[nH]c1=O [stavudine]; experiment: as above
Description: as §1

zidovudine = compound: Cc1cn([C@H]2C[C@H](N=[N+]=[N-])[C@@H](CO)O2)c(=O)[nH]c1=O [zidovudine]; experiment: as above
Description: as §1

abacavir = compound: Nc1nc(NC2CC2)c2ncn([C@H]3C=C[C@@H](CO)C3)c2n1 [abacavir]; experiment: as above
Description: as §1

tipranavir = compound: CCC[C@@]1(CCc2ccccc2)CC(O)=C([C@H](CC)c2cccc(NS(=O)(=O)c3ccc(C(F)(F)F)cn3)c2)C(=O)O1 [tipranavir]; experiment: fold change of IC50 against reference virus; higher = more resistant; Cell-culture drug susceptibility tests of virus bearing the protease of each isolate, gathered from many studies.
indinavir = compound: CC(C)(C)NC(=O)[C@@H]1CN(Cc2cccnc2)CCN1C[C@@H](O)C[C@@H](Cc1ccccc1)C(=O)N[C@H]1c2ccccc2C[C@H]1O [indinavir]; experiment: as above
lopinavir = compound: Cc1cccc(C)c1OCC(=O)N[C@@H](Cc1ccccc1)[C@@H](O)C[C@H](Cc1ccccc1)NC(=O)[C@H](C(C)C)N1CCCNC1=O [lopinavir]; experiment: as above
atazanavir = compound: COC(=O)N[C@H](C(=O)N[C@@H](Cc1ccccc1)[C@@H](O)CN(Cc1ccc(-c2ccccn2)cc1)NC(=O)[C@@H](NC(=O)OC)C(C)(C)C)C(C)(C)C [atazanavir]; experiment: as above
nelfinavir = compound: Cc1c(O)cccc1C(=O)N[C@@H](CSc1ccccc1)[C@H](O)CN1C[C@H]2CCCC[C@H]2C[C@H]1C(=O)NC(C)(C)C [nelfinavir]; experiment: as above
saquinavir = compound: CC(C)(C)NC(=O)[C@@H]1C[C@@H]2CCCC[C@@H]2CN1C[C@@H](O)[C@H](Cc1ccccc1)NC(=O)[C@H](CC(N)=O)NC(=O)c1ccc2ccccc2n1 [saquinavir]; experiment: as above
ritonavir = compound: CC(C)c1nc(CN(C)C(=O)N[C@H](C(=O)N[C@@H](Cc2ccccc2)C[C@H](O)[C@H](Cc2ccccc2)NC(=O)OCc2cncs2)C(C)C)cs1 [ritonavir]; experiment: as above

| Test System | fold change of IC50 against reference virus (tenofovir) | fold change of IC50 against reference virus (tipranavir) | fold change of IC50 against reference virus (indinavir) | fold change of IC50 against reference virus (lopinavir) | fold change of IC50 against reference virus (atazanavir) | fold change of IC50 against reference virus (nelfinavir) | fold change of IC50 against reference virus (saquinavir) | fold change of IC50 against reference virus (ritonavir) | also measured |
| --- | --- | --- | --- | --- | --- | --- | --- | --- | --- |
| HIV-1 isolate 76 (reverse transcriptase changes: V148M I178V Q207G R211K F214L, study 22) | 28 |  |  |  |  |  |  |  |  |
| HIV-1 isolate 847 (reverse transcriptase changes: T39A M41L E44D D67E S68G L74I V75M V108I V118I K122E I135T T165I M184V V189I G190A E203K Q207E L210W R211K T215Y K223Q V245K, study 95) | 1.5 |  |  |  |  |  |  |  | fold change of IC50 against reference virus (delavirdine): 0.2; fold change of IC50 against reference virus (didanosine): 2.3; fold change of IC50 against reference virus (nevirapine): 196; fold change of IC50 against reference virus (efavirenz): 15; fold change of IC50 against reference virus (stavudine): 3.1; fold change of IC50 against reference virus (zidovudine): 50 |
| HIV-1 isolate 964 (reverse transcriptase changes: F77L F116Y Q151M, study 79) | 2.5 |  |  |  |  |  |  |  |  |
| HIV-1 isolate 163 (reverse transcriptase changes: D67N K70R T215F K219Q, study 79) | 0.5 |  |  |  |  |  |  |  |  |
| HIV-1 isolate 655 (reverse transcriptase changes: M184V, study 79) | 0.7 |  |  |  |  |  |  |  |  |
| HIV-1 isolate 1604 (reverse transcriptase changes: T39A M41L V106I I135T K173N Q174K V179E M184V Y188L T200A H208Y L210W R211K T215Y H221Y D237E V245Q, study 95) | 1.3 |  |  |  |  |  |  |  | fold change of IC50 against reference virus (delavirdine): 58; fold change of IC50 against reference virus (didanosine): 1.7; fold change of IC50 against reference virus (nevirapine): 263; fold change of IC50 against reference virus (efavirenz): 306; fold change of IC50 against reference virus (stavudine): 2.2; fold change of IC50 against reference virus (zidovudine): 9.7 |
| HIV-1 isolate 281 (reverse transcriptase changes: K65R S68G, study 75) | 1.9 |  |  |  |  |  |  |  | fold change of IC50 against reference virus (didanosine): 1.6; fold change of IC50 against reference virus (abacavir): 2.4; fold change of IC50 against reference virus (stavudine): 1.8; fold change of IC50 against reference virus (zidovudine): 0.6 |
| HIV-1 isolate 1233 (reverse transcriptase changes: K65R, study 75) | 1.7 |  |  |  |  |  |  |  | fold change of IC50 against reference virus (didanosine): 1.6; fold change of IC50 against reference virus (abacavir): 2.3; fold change of IC50 against reference virus (stavudine): 1.6; fold change of IC50 against reference virus (zidovudine): 0.4 |
| HIV-1 isolate 274 (reverse transcriptase changes: T69D, study 79) | 0.7 |  |  |  |  |  |  |  |  |
| HIV-1 isolate 1398 (reverse transcriptase changes: T215Y, study 79) | 0.7 |  |  |  |  |  |  |  |  |
| HIV-1 isolate 300 (reverse transcriptase changes: L74V, study 79) | 1 |  |  |  |  |  |  |  |  |
| HIV-1 isolate 855 (reverse transcriptase changes: A62V K65R, study 75) | 1.8 |  |  |  |  |  |  |  | fold change of IC50 against reference virus (didanosine): 1.3; fold change of IC50 against reference virus (abacavir): 1.6; fold change of IC50 against reference virus (stavudine): 1.4; fold change of IC50 against reference virus (zidovudine): 0.5 |
| HIV-1 isolate 1567 (reverse transcriptase changes: Y181C, study 79) | 0.1 |  |  |  |  |  |  |  |  |
| HIV-1 isolate 1499 (reverse transcriptase changes: T39A M41L K64R L74V K102Q V118I K122E I135T I142V K166R Q174R M184V T200A L210W F214L T215Y V245N, study 95) | 1.1 |  |  |  |  |  |  |  | fold change of IC50 against reference virus (delavirdine): 0.2; fold change of IC50 against reference virus (didanosine): 2.9; fold change of IC50 against reference virus (nevirapine): 0.9; fold change of IC50 against reference virus (efavirenz): 0.4; fold change of IC50 against reference virus (stavudine): 1.6 |
| HIV-1 isolate 149 (reverse transcriptase changes: Q151M, study 79) | 1 |  |  |  |  |  |  |  |  |
| HIV-1 isolate 1591 (reverse transcriptase changes: M41L E44D D67N A98G K101E V106I V108I V118I Y181C M184V G190A Q197E T200A E203D H208F L210W R211K T215Y K219N H221Y, study 95) | 1.4 |  |  |  |  |  |  |  | fold change of IC50 against reference virus (delavirdine): 38; fold change of IC50 against reference virus (didanosine): 2.1; fold change of IC50 against reference virus (nevirapine): 178; fold change of IC50 against reference virus (efavirenz): 253; fold change of IC50 against reference virus (stavudine): 3.7; fold change of IC50 against reference virus (zidovudine): 55 |
| HIV-1 isolate 718 (reverse transcriptase changes: K70E, study 31) | 1.2 |  |  |  |  |  |  |  | fold change of IC50 against reference virus (abacavir): 1.4 |

| Test System | fold change of IC50 against reference virus (tenofovir) | fold change of IC50 against reference virus (tipranavir) | fold change of IC50 against reference virus (indinavir) | fold change of IC50 against reference virus (lopinavir) | fold change of IC50 against reference virus (atazanavir) | fold change of IC50 against reference virus (nelfinavir) | fold change of IC50 against reference virus (saquinavir) | fold change of IC50 against reference virus (ritonavir) | also measured |
| --- | --- | --- | --- | --- | --- | --- | --- | --- | --- |
| HIV-1 isolate 1117 (reverse transcriptase changes: M41L L74V V106A T215Y, study 79) | 1 |  |  |  |  |  |  |  |  |
| HIV-1 isolate 1638 (reverse transcriptase changes: K65R, study 79) | 5 |  |  |  |  |  |  |  |  |
| HIV-1 isolate 1305 (protease changes: L63T V77I, study 64) |  | 0.5 | 0.6 | 0.5 | 0.7 | 1 | 0.6 | 0.6 |  |
| HIV-1 isolate 764 (reverse transcriptase changes: K122E Q151M F214L A272P K277R M357T A376T A400T N447S D460N S468T S519N, study 97) | 3.7 |  |  |  |  |  |  |  | fold change of IC50 against reference virus (nevirapine): 1.6; fold change of IC50 against reference virus (stavudine): 26.6; fold change of IC50 against reference virus (zidovudine): 87.5 |
| HIV-1 isolate 876 (reverse transcriptase changes: none, study 79) | 1 |  |  |  |  |  |  |  |  |
| HIV-1 isolate 1449 (protease changes: I13V I15V K20R M36I R41K H69K L89M I93L, study 64) |  | 0.5 | 0.4 | 0.3 | 0.5 | 0.3 | 0.5 | 0.2 |  |
| HIV-1 isolate 1574 (protease changes: M36I I62V L63P I93L, study 64) |  | 0.9 | 1.4 | 1.3 | 1.3 | 1.7 | 0.9 | 1.2 |  |
| HIV-1 isolate 1613 (protease changes: L10V I13V K20R V32I E35D M36I K43T M46I I47V F53L I62V L63P A71L I72V V77Q V82C I84V I93L, study 64) |  | ≥ 800 | 4.4 | 58 | 59 | 19 | 32 | ≥ 800 |  |
| HIV-1 isolate 1342 (protease changes: L10I T12K L33F R41K K43T M46I I50L I54V K55R I62V L63P A71V I72L G73T V77I V82A L90M I93L C95F, study 15) |  | 0.9 | 9.8 | 13 | 110 | 6.4 | 2.6 | 30 |  |
| HIV-1 isolate 957 (reverse transcriptase changes: K65R K70E, study 31) | 2.3 |  |  |  |  |  |  |  | fold change of IC50 against reference virus (abacavir): 3.1 |
| HIV-1 isolate 1440 (protease changes: R57K L63P E65D, study 64) |  | 0.9 | 0.6 | 0.8 | 0.7 | 0.8 | 0.9 | 0.6 |  |
| HIV-1 isolate 1631 (protease changes: L10I I13V L19V K20T M46I I54V I62V L63P A71V I72L G73S V82T L90M, study 64) |  | 3.2 | 30 | 39 | 24 | 71 | 18 | 61 |  |
| HIV-1 isolate 475 (protease changes: K14R L33V R41K I64V, study 64) |  | 2.4 | 1.7 | 1.1 | 1.7 | 1.6 | 1.2 | 2.1 |  |
| HIV-1 isolate 588 (protease changes: E35D L63P, study 64) |  | 1.8 | 1.7 | 1.5 | 1.6 | 2 | 1.2 | 2.3 |  |
| HIV-1 isolate 702 (protease changes: L10I I13V K14R G16E K20I E35D M36I N37D R41N I54V L63H H69K K70R T74S L76V V82A L89I T91S, study 64) |  | 0.5 | 15 | 91 | 0.8 | 4.2 | 1.1 | 22 |  |
| HIV-1 isolate 172 (protease changes: I13V R41K L63P H69R I93L, study 64) |  | 1.1 | 1.3 | 0.7 | 1.1 | 1.7 | 0.6 | 1.1 |  |
| HIV-1 isolate 1534 (protease changes: A22V E35D R41K I62V L63P K70R A71V L90M, study 15) |  | 1.9 | 4 | 1.8 | 3.3 | 8.5 | 3.2 | 4.2 |  |
